Experimental data as given in article PMC5055493, “The PilZ domain of MrkH represents a novel DNA binding motif” (Protein & Cell, 2016).
For some of these results: The exact form of at least one protein or probe is not confirmed.

What was measured:
[1] = biological target: T1, MBP-MrkH (Klebsiella pneumoniae) (UniProt G3FT00); assay: EMSA; conditions: EMSA: 50 mM Tris pH 8.0, 100 mM NaCl, 5 mM MgCl2, 20 ul, 100 min on ice; recombinant protein; protein details: N-terminal MBP
T1 sequence: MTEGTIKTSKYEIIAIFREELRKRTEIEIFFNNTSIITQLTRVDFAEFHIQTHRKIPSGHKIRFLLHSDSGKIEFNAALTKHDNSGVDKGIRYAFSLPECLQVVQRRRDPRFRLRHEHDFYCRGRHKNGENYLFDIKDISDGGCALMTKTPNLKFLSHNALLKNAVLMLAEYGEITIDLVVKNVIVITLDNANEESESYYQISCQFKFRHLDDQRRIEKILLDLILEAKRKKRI

[2] = biological target: T2, MBP-MrkH-PilZ domain (Klebsiella pneumoniae) (UniProt G3FT00); assay: EMSA; conditions: EMSA: 50 mM Tris pH 8.0, 100 mM NaCl, 5 mM MgCl2, 20 ul, 100 min on ice; recombinant protein; residues 105-234; protein details: N-terminal MBP
T2 sequence: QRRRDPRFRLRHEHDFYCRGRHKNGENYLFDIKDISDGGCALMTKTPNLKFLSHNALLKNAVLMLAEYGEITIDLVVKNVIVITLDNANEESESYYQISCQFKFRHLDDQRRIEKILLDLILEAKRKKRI

[3] = biological target: MrkH-PilZ domain (no MBP) (Klebsiella pneumoniae) (UniProt G3FT00); assay: EMSA; conditions: EMSA: 50 mM Tris pH 8.0, 100 mM NaCl, 5 mM MgCl2, 20 ul, 100 min on ice; recombinant protein; residues 105-234; protein details: MBP absent
[4] = biological target: T3, MrkH (tag removed) (Klebsiella pneumoniae) (UniProt G3FT00); assay: fluorescence polarization; conditions: c-di-GMP (DNA fragment not explicit, 80 bp from context); FP: 10 nM FAM-DNA, 25 C, buffer not fully given. Fig. 2G Kd values (High, 10.3, High, 7.5, 24.3, 10.6, 12.7); recombinant protein; label: 5'-FAM
T3 sequence: T1 sequence

Sequence | binding result [1] | binding result [2] | binding result [3] | Kd [4]
GCTGCGCTGTAAACAACCACCCTCGCGTTTTCATCTATCAATGGCTGTTTATTAATAGTCGATGGTTATCTGTTATATAACTTAATGAAACGTGAACAAATGTATATTTGTCGGCGAATAAATAGCATTCTTTGACGCCGATAGCACCAGCGAACTTATATTTTTAGGTTCGTTACCTGACGCCTTAAATATTGCGGCTCCCGGTCAGTCGAAGATTCTATTAGCAGTGGCATAAATCAGCATCGCCTGATGTTTCTGGTTCTATGCGAATTCACAGTGTGCT (double strand) [mrkA promoter 288 bp (EMSA, unlabeled)] | binds | binds | binds | –
GCTGCGCTGTAAACAACCACCCTCGCGTTTTCATCTATCAATGGCTGTTTATTAATAGTCGATGGTTATCTGTTATATAA (double strand) [PmrkA -117 to -37 (FAM)] | – | – | – | 2630 nM
